Source: publication PMC3677877 (2013)

Target: rKgp: mature recombinant Kgp catalytic domain with the ABM1 motif (Gly681-Ala710) deleted (Porphyromonas gingivalis W50)

“Kgp propeptide dimer (covalent, through the single cysteine) (from UniProt Q51817 20-228) (complex)” showed an inhibition of 0.15 µM rKgp by the dimer, substrate GPKNA of under 5 % inhibition and an inhibition of 0.15 µM rKgp by the equivalent dimer, substrate DQ-BSA of under 4 % inhibition.
